Results reported in ChEMBL document CHEMBL1687729, “Intracellular activity of antibiotics in a model of human THP-1 macrophages infected by a Staphylococcus aureus small-colony variant strain isolated from a cystic fibrosis patient: pharmacodynamic evaluation and comparison with isogenic normal-phenotype and revertant strains” (Antimicrob Agents Chemother, 2009).

System: Staphylococcus aureus

Work on GENTAMICIN yielded an MIC of 0.5 µg/mL.
